## Sequence variants of PSTVd loop 6 after infection

Source: Wu et al. 2024 (doi:10.1371/journal.ppat.1012142), supplementary data.

PSTVd intermediate strain, loop 6: wild type UGACCGCGAG, pool pattern UNNNCGNNNG; upper and lower strand joined, each 5' to 3', the first 5 letters being the upper strand, closing pairs included.

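Three N. benthamiana plants were inoculated with the whole mutant pool. Samples came from the inoculated region at 5 days, the leaf margin at 10 and upper systemic leaves at 12.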

Numbers give reads per thousand; 0 = not seen among the reads, higher = more abundant.
Each site shows the three plants.
"Pool" is the share in the plasmid pool used as inoculum, on the same scale.
The inoculated region was read from the minus strand, the other sites from the plus strand.
IR is the inoculated region, LM the leaf margin, Sys the systemic leaves.

sequence,pool,IR,LM,Sys
UCCGCGGGCG,0.196,0.0695 / 0.0719 / 0.0553,0 / 0 / 0.0696,0 / 0 / 0
UCCGCGGGGG,0.0784,0.122 / 0.0359 / 0.0369,0 / 0 / 0,0 / 0 / 0
UCCGCGGGUG,0.235,0.104 / 0.0719 / 0.0369,0.0276 / 0 / 0,0 / 0 / 0
UCCGCGGUAG,0.209,0.0695 / 0.0359 / 0.0922,0 / 0 / 0.0232,0 / 0 / 0
UCCGCGGUCG,0.222,0.0869 / 0.162 / 0.0922,0 / 0 / 0,0 / 0 / 0.0205
UCCGCGGUGG,0.340,0.139 / 0.0539 / 0.0738,0 / 0 / 0.0464,0 / 0 / 0
UCCGCGGUUG,0.235,0.0348 / 0.126 / 0.0922,0 / 0 / 0,0 / 0 / 0.0205
UCCGCGUAAG,0.157,0.104 / 0.0359 / 0.129,0 / 0 / 0,0 / 0 / 0
UCCGCGUACG,0.275,0.104 / 0.126 / 0.0738,0 / 0 / 0,0 / 0 / 0
UCCGCGUAGG,0.275,0.139 / 0.0719 / 0.111,0.0276 / 0 / 0,0 / 0 / 0
UCCGCGUAUG,0.209,0.156 / 0.0539 / 0.129,0.276 / 0 / 0,0 / 0 / 0
UCCGCGUCAG,0.275,0.139 / 0.0898 / 0.0369,0.0276 / 0 / 0,0 / 0 / 0
UCCGCGUCCG,0.118,0.191 / 0.0359 / 0.0738,0 / 0 / 0,0 / 0 / 0
UCCGCGUCGG,0.235,0.174 / 0.0719 / 0.0184,0 / 0 / 0,0 / 0 / 0
UCCGCGUCUG,0.261,0.139 / 0.0898 / 0.0553,0.0276 / 0.0252 / 0,0 / 0 / 0
UCCGCGUGAG,0.196,0.0348 / 0.126 / 0.203,0.0552 / 0 / 0,0 / 0 / 0
UCCGCGUGCG,0.157,0.0695 / 0.0539 / 0.0553,0 / 0 / 0,0 / 0 / 0
UCCGCGUGGG,0.209,0.139 / 0.0898 / 0.129,0 / 0 / 0,0 / 0 / 0
UCCGCGUGUG,0.248,0.0869 / 0.108 / 0.0369,0 / 0 / 0.0232,0 / 0 / 0
UCCGCGUUAG,0.484,0.174 / 0.108 / 0.0553,0.0276 / 0 / 0.0232,0 / 0 / 0.0205
UCCGCGUUCG,0.222,0.0869 / 0.126 / 0.0369,0.0552 / 0 / 0.0232,0 / 0 / 0
UCCGCGUUGG,0.275,0.174 / 0.0180 / 0.0553,0 / 0 / 0,0 / 0 / 0
UCCGCGUUUG,0.222,0.0695 / 0.144 / 0.0738,0 / 0 / 0.0232,0 / 0 / 0
UCCGCUCGAG,0.0131,0.0174 / 0 / 0,0 / 0 / 0.0232,0 / 0 / 0
UCCUCCCUUG,0.0131,0 / 0 / 0,0 / 0 / 0,0 / 0 / 0
UCCUCGAAAG,0.209,0.0869 / 0.108 / 0.0184,0 / 0 / 0,0 / 0 / 0
UCCUCGAACG,0.209,0.122 / 0.0539 / 0.0922,0 / 0 / 0,0 / 0 / 0
UCCUCGAAGG,0.144,0.122 / 0.162 / 0.0738,0 / 0 / 0,0 / 0 / 0
UCCUCGAAUG,0.327,0.122 / 0.108 / 0.111,0 / 0 / 0,0 / 0 / 0
UCCUCGACAG,0.209,0.191 / 0.0719 / 0.0369,0 / 0 / 0.0464,0 / 0 / 0
UCCUCGACCG,0.157,0.104 / 0.0898 / 0.0553,0 / 0 / 0,0 / 0 / 0
UCCUCGACGG,0.196,0.122 / 0.108 / 0.0369,0 / 0 / 0,0 / 0 / 0
UCCUCGACUG,0.235,0.0695 / 0.0898 / 0.0738,0 / 0 / 0,0 / 0 / 0
UCCUCGAGAG,0.196,0.122 / 0.0359 / 0.111,0.0276 / 0 / 0,0 / 0 / 0
UCCUCGAGCG,0.235,0.104 / 0.0898 / 0.0738,0 / 0 / 0,0 / 0 / 0
UCCUCGAGGG,0.248,0.243 / 0.0180 / 0.0553,0.0276 / 0 / 0,0 / 0 / 0
UCCUCGAGUG,0.209,0.122 / 0.0719 / 0.0553,0 / 0 / 0,0 / 0 / 0
UCCUCGAUAG,0.235,0.174 / 0.126 / 0.0738,0 / 0 / 0.232,0 / 0 / 0
UCCUCGAUCG,0.118,0.0521 / 0.108 / 0.148,0 / 0 / 0.0232,0 / 0 / 0
UCCUCGAUGG,0.170,0.0521 / 0.126 / 0.0738,0 / 0 / 0,0 / 0 / 0
UCCUCGAUUG,0.353,0.0521 / 0.126 / 0.203,0 / 0 / 0,0 / 0 / 0
UCCUCGCAAG,0.144,0.0695 / 0.162 / 0.129,0 / 0 / 0.0232,0 / 0 / 0
UCCUCGCACG,0.170,0.122 / 0.0898 / 0.0369,0 / 0 / 0,0 / 0 / 0
UCCUCGCAGG,0.105,0.156 / 0.144 / 0.129,0 / 0 / 0.0464,0 / 0 / 0
UCCUCGCAUG,0.105,0.104 / 0.0539 / 0.0922,0.0276 / 0 / 0.0232,0 / 0 / 0
UCCUCGCCAG,0.209,0.104 / 0.0539 / 0.0553,0 / 0 / 0,0 / 0 / 0
UCCUCGCCCG,0.235,0.122 / 0.0180 / 0.0369,0 / 0 / 0,0 / 0 / 0
UCCUCGCCGG,0.170,0.0695 / 0.0539 / 0.111,0 / 0 / 0.0232,0 / 0 / 0
UCCUCGCCUG,0.196,0.104 / 0.126 / 0.0738,0.0276 / 0 / 0.0232,0 / 0 / 0
UCCUCGCGAG,0.196,0.174 / 0.269 / 0.184,0.110 / 0.504 / 0.0232,0 / 0.0202 / 0
UCCUCGCGAU,0.0131,0 / 0.0180 / 0.129,0 / 0 / 0.0232,0 / 0 / 0
UCCUCGCGCG,0.235,0.191 / 0.0898 / 0.184,0 / 0 / 0.0232,0 / 0 / 0
UCCUCGCGGG,0.144,0.156 / 0.0539 / 0.0922,0 / 0 / 0,0 / 0 / 0
UCCUCGCGUG,0.196,0.104 / 0.108 / 0.0553,0 / 0.0252 / 0.0232,0 / 0 / 0
UCCUCGCUAG,0.0915,0.0869 / 0.0539 / 0.0553,0 / 0 / 0,0 / 0 / 0
UCCUCGCUCG,0.235,0.122 / 0.108 / 0.0184,0 / 0 / 0.0232,0 / 0 / 0
UCCUCGCUGG,0.144,0.104 / 0.0719 / 0.0553,0 / 0 / 0,0 / 0 / 0
UCCUCGCUUG,0.157,0.0869 / 0.126 / 0.0369,0 / 0 / 0,0 / 0 / 0
UCCUCGGAAG,0.157,0.0521 / 0.0719 / 0.0553,0 / 0 / 0,0 / 0 / 0
UCCUCGGACG,0.222,0.0348 / 0.0898 / 0.0922,0 / 0 / 0.0232,0 / 0 / 0
UCCUCGGAGG,0.144,0.104 / 0.108 / 0.0738,0 / 0 / 0,0 / 0 / 0
UCCUCGGAUG,0.222,0.139 / 0.0180 / 0.0369,0.0276 / 0 / 0.0232,0 / 0 / 0
UCCUCGGCAG,0.0915,0.156 / 0.0359 / 0.0922,0.0276 / 0 / 0,0 / 0 / 0
UCCUCGGCCG,0.170,0.0695 / 0.0539 / 0.0738,0.0276 / 0 / 0,0 / 0 / 0
UCCUCGGCGG,0.131,0.174 / 0.0719 / 0.129,0 / 0 / 0,0 / 0 / 0
UCCUCGGCUG,0.196,0.122 / 0.0539 / 0.0922,0 / 0 / 0,0 / 0 / 0
UCCUCGGGAG,0.157,0.156 / 0.0359 / 0.111,0 / 0 / 0,0 / 0 / 0
UCCUCGGGCG,0.157,0.0869 / 0.0359 / 0.0184,0.0276 / 0 / 0,0 / 0 / 0

Extract of 3 entries:

| sequence | pool | IR | LM | Sys |
|---|---|---|---|---|
| UCCUCGCGGG | 0.144 | 0.156 / 0.0539 / 0.0922 | 0 / 0 / 0 | 0 / 0 / 0 |
| UCCUCGAAAG | 0.209 | 0.0869 / 0.108 / 0.0184 | 0 / 0 / 0 | 0 / 0 / 0 |
| UCCUCGCCAG | 0.209 | 0.104 / 0.0539 / 0.0553 | 0 / 0 / 0 | 0 / 0 / 0 |

Sequences that differ at fixed positions probably stem from PCR or sequencing errors, and defective variants can be carried along by functional ones.
Wild type was 20.7 per thousand in the pool and the most common sequence in every sample (inoculated region 195, 198, 203; leaf margin 629, 591, 734; systemic leaves 942, 870, 868).
Samples held 36,220 to 57,551 reads, so the smallest values rest on one or two reads.